Compound potency records, mixed from different reports. Data source: NIAID ChemDB in PubChem.

Shared fields: enzyme or target tests; species: HIV; protein: Reverse transcriptase; measure: IC50

Blank or dashed fields: not listed here.

{"SMILES": "S=C(CCCc1ccccc1)Nc1ccc(Cl)cn1", "mutations": "K103N", "method": "radiometric", "result": ">100 µM"}
{"SMILES": "Nc1nc2c(ncn2[C@H]2CC[C@@H](COP(=O)(O)OP(=O)(O)OP(=O)(O)O)O2)c(=O)[nH]1", "mutations": "RT-V75I F77L F116Y Q151M", "method": "nucleotide incorporation / radiometric", "result": "0.17 µM"}
{"SMILES": "Cc1cn([C@H]2CC[C@@H](COP(=O)(O)OP(=O)(O)OP(=O)(O)OP(=O)(O)OC[C@@H]3CC[C@H](n4cc(C)c(=O)[nH]c4=O)O3)O2)c(=O)[nH]c1=O", "mutations": "RT-D67N K70R T215Y K219Q", "method": "nucleotide incorporation / radiometric", "result": "0.92 µM"}
{"SMILES": "COc1ccc(C(=O)CSc2nc(Cc3ccccc3)c(C)c(=O)[nH]2)cc1", "method": "ELISA", "result": "1.1 µM"}
{"SMILES": "CC(C)OC(=O)c1cc(NC(=S)OC(C)C)ccc1Cl", "mutations": "L100I", "method": "radiometric", "result": "27.4 µM"}
{"SMILES": "COc1cc(C#N)cc(Oc2c(Cl)ccc(Cc3cc(C)c(=O)[nH]n3)c2F)c1", "mutations": "K103N L100I", "result": "0.002 µM"}
{"SMILES": "Cc1c(Cc2cccc3ccccc23)nc(Sc2cccs2)[nH]c1=O", "method": "ELISA", "result": "509 µM"}
{"SMILES": "Cc1cn([C@H]2CC[C@@H](COP(=O)(O)OP(=O)(O)OP(=O)(O)O)O2)c(=O)[nH]c1=O", "mutations": "RT-K65R", "method": "nucleotide incorporation / radiometric", "result": "0.66 µM"}
{"SMILES": "Cc1c(Cc2cccc3ccccc23)nc(SCC(=O)c2cccs2)[nH]c1=O", "method": "ELISA", "result": "1.86 µM"}
{"SMILES": "CNc1ccccc1C(=O)O[C@H]1[C@@H](O)[C@H](n2cnc3c(N)ncnc32)O[C@@H]1COP(=O)(O)OP(=O)(O)OP(=O)(O)OP(=O)(O)OC[C@@H]1CC[C@H](n2cnc3c(=O)[nH]c(N)nc32)O1", "mutations": "RT-D67N K70R T215Y K219Q", "method": "nucleotide incorporation / radiometric", "result": "0.83 µM"}
{"SMILES": "COc1ccc(CCSc2nc(Cc3cccc4ccccc34)c(C(C)C)c(=O)[nH]2)cc1", "method": "ELISA", "result": "449 µM"}
{"SMILES": "S=C(Cc1ccccn1)Nc1ccc(Cl)cc1", "mutations": "Y181I", "method": "radiometric", "result": ">100 µM"}
{"SMILES": "CC(C)c1c(Cc2ccccc2)nc(SCC(=O)c2cccs2)[nH]c1=O", "method": "ELISA", "result": "37.8 µM"}
{"SMILES": "Nc1ncnc2c1ncn2[C@H]1CC[C@@H](COP(=O)(O)OP(=O)(O)OP(=O)(O)O)O1", "method": "nucleotide incorporation / radiometric", "result": "45 µM"}
{"SMILES": "Nc1ncnc2c1ccn2[C@H]1C[C@H](F)[C@@H](COP(=O)(O)OP(=O)(O)OP(=O)(O)O)O1", "mutations": "RT-M41L T215Y", "method": "nucleotide incorporation / radiometric", "result": "0.22 µM"}
{"SMILES": "Fc1cccc(F)c1CC(=S)NCc1ccccn1", "mutations": "L100I", "method": "radiometric", "result": "70.1 µM"}
{"SMILES": "Nc1nc2c(ncn2[C@H]2CC[C@@H](COP(=O)(O)OP(=O)(O)OP(=O)(O)O)O2)c(=O)[nH]1", "mutations": "RT-Y271S", "method": "nucleotide incorporation", "result": ">0.3 µM"}
{"SMILES": "Nc1ccn([C@H]2CC[C@@H](COP(=O)(O)OP(=O)(O)OP(=O)(O)OP(=O)(O)OC[C@@H]3CC[C@H](n4ccc(N)nc4=O)O3)O2)c(=O)n1", "mutations": "RT-D67N K70R T215Y K219Q", "method": "nucleotide incorporation / radiometric", "result": "0.18 µM"}

For reference, 2 entries again:

SMILES	mutations	method	result
COc1cc(C#N)cc(Oc2c(Cl)ccc(Cc3cc(C)c(=O)[nH]n3)c2F)c1	K103N L100I		0.002 µM
Cc1cn([C@H]2CC[C@@H](COP(=O)(O)OP(=O)(O)OP(=O)(O)O)O2)c(=O)[nH]c1=O	RT-K65R	nucleotide incorporation / radiometric	0.66 µM

Conditions beyond the fields shown may differ between rows. ICn is the concentration giving n% inhibition.